Here are results for one sequence from publication PMC5016687, “The Effectors and Sensory Sites of Formaldehyde-responsive Regulator FrmR and Metal-sensing Variant” (The Journal of Biological Chemistry, 2016).

The target in this series is T1, RcnR (Salmonella enterica serovar Typhimurium SL1344) (UniProt Q7CPV3).
T1 sequence (looked up, limits assumed): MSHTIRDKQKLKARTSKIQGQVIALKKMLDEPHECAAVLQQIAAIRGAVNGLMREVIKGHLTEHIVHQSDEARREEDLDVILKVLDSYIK
As to the kind of experiment: fluorescence anisotropy. The note with it: 10 mM HEPES pH 7.0, 60 mM NaCl, 240 mM KCl, 5 mM EDTA (or 5 uM NiCl2/CoCl2), 25 C, 10 nM DNA, anaerobic except FrmRC35A, Kd per tetramer, recombinant protein, label: 5'-HEX on strand 1. (In general: In fluorescence polarisation assays a small probe gives low polarisation when free and higher when bound to something large.)

pKd: −log10 of the molar value. Construct, isoform or probe ends are uncertain for at least one entry. Where a protein sequence is shown, tags need not be part of it. The direction of at least one scale is not stated here.

Consider “TACTCCCCCCCAGTATAGAATACTACCCCCCAGTA (double strand) [rcnRAPro]”, for which the binding signal (fold weaker Kd vs apo) by setting is: (50 uM formaldehyde, 5 mM EDTA) 2.5; (100 uM formaldehyde, EDTA) 5. Further, the pKd (usually the negative decadic logarithm of the Kd, by convention in mol/L) is less than 4.82 (Co(II)-RcnR, 5 uM CoCl2, printed as >=) and less than 5.23 (Ni(II)-RcnR, 5 uM NiCl2, printed as >=).
